Anti-infective test results gathered from many reports (values: NIAID ChemDB through PubChem).

Shared fields: growth or infection tests; organism: HIV-1; read by: syncytia; measure: EC50

ECn: concentration that inhibits the pathogen or its effect by n%. An empty or dashed field is not shown. Lines come from different laboratories, so protocols vary.

smiles	changes	strain or isolate	cell line	value
CC(C)OC(=O)c1cc(NC(=S)OCC2(C)COC2)ccc1Cl	RT-E138K	-	CEM	>29.94 µM
Cc1ccc(C)c(CS(=O)c2ccc(Cl)c[n+]2[O-])c1	-	IIIB	CEM	2 µg/mL
C[C@H](Cn1cnc2c(N)ncnc21)OCP(=O)(O)O	-	IIIB	CEM	1.1 µM
Nc1nc(=O)n([C@@H]2CC[C@H](CO)O2)cc1F	-	RF	MT-4	0.055 µM
COCCOC(=S)Nc1ccc(Cl)c(C(=O)OC(C)C)c1	RT-Y181C	-	CEM	≥30.14 µM
CCCCCCCCCCCCCCCCOCC(COC(=O)CCC(=O)OCC1CC(OP(=O)(O)OCC2CC(OP(=O)(O)OCC3CC(O)C(n4cnc5c(N)ncnc54)O3)C(n3cnc4c(N)ncnc43)O2)C(n2cnc3c(N)ncnc32)O1)OCCCCCCCCCCCCCCCC	-	IIIB	SupT1 + Sup-T1	<300 µM
Cc1nnc(C(=O)NC(C)(C)c2nc(C(=O)NCc3ccc(F)cc3)c(O)c(=O)n2C)o1	-	IIIB	C8166	0.005 µM
Nc1nc(=O)n([C@@H]2CC[C@H](CO)O2)cc1F	-	RF	C8166	0.043 µM
CCOC(=O)c1cc(NC(=S)c2ccoc2C)ccc1C	RT-Y181C	IIIB	CEM	0.06 µg/mL
Cc1ccc(C)c(C(Cl)S(=O)(=O)c2cc(C)cc[n+]2[O-])c1	RT-Y181C	IIIB	CEM	>4 µg/mL
CCN1C[C@H](C)n2c(c(O)c3c(=O)n(Cc4ccc(F)c(Cl)c4)nc(C(=O)NC)c32)C1=O	-	BaL	PBMC	0.0009 µM
CC(C)OC(=O)c1cc(NC(=S)OC(C)C)ccc1Cl	-	IIIB	CEM	0.028 µM
CC(C)=CCc1c(O[C@@H]2O[C@H](CO)[C@@H](O)[C@H](O)[C@H]2O)cc2c(c1O)C(=O)[C@H](O)[C@@H](c1ccc(O)cc1)O2	-	MC99 deltaTAT/REV	1A2	29.1 µg/mL
Cc1ccc(C)c(C(C)S(=O)(=O)c2ccc(C)c[n+]2[O-])c1	-	HE	CEM	40 µg/mL
CCC1=C(C(=O)Nc2ccc(Cl)c(C(=O)OC(C)C)c2)SCCO1	-	IIIB	CEM	0.04 µg/mL
CCCCOC(=O)c1cc(NC(=S)OC(C)C)ccc1Cl	RT-E138K	-	CEM	1.74 µM
COC(=O)c1cc(NC(=O)C2=C(C)OCCS2)ccc1Cl	-	IIIB	CEM	4 µg/mL
C=CCOC(=S)Nc1ccc(Cl)c(C(=O)OC(C)C)c1	RT-L100I	-	CEM	12.75 µM
Nc1ncnc2c1ncn2[C@@H]1O[C@H](COP(=O)(O)O[C@@H]2[C@H](O)[C@@H](COP(=O)(O)O[C@@H]3[C@H](O)[C@@H](CO)O[C@H]3n3cnc4c(N)ncnc43)O[C@H]2n2cnc3c(N)ncnc32)[C@@H](O)[C@H]1O	-	IIIB	PBL	>300 µM
Cc1occc1C(=O)Nc1ccc(Cl)c(/C=N/N(C)C)c1	RT-Y181C	L-697 661-resistant RT Y181C	CEM	<2 µg/mL
CCC(CC)COC(=O)c1cc(NC(=S)OC(C)C)ccc1Cl	RT-V106A	-	CEM	2.375 µM
CC1=C(C(=O)Nc2ccc(Cl)c(C(=O)OCC3CCC3)c2)SCCO1	RT-L100I	TIBO-resistant (RT L100I)	CEM	1.9 µg/mL
O=C(O)c1cn(-c2ccc(Cn3cncn3)cc2)c2cc(N3CCN(c4ccc(F)cc4F)CC3)ccc2c1=O	-	-	PBL	0.13 µM
Cc1ccc(C)c(CS(=O)(=O)c2cccc[n+]2[O-])c1	RT-Y181C	IIIB	CEM	20 µg/mL
CC(C)(O)[C@@H]1CC[C@@]2(C)CCC[C@@](C)(O)[C@@H]2C1	-	deltaTAT/Rev MC99	1A2	277.1 µM
CCCOC(=O)c1cc(NC(=S)OC(C)C)ccc1Cl	RT-L100I	-	CEM	9.816 µM
Cc1cn(C2OC(CO[Si](C)(C)C(C)(C)C)C3(OS(=O)(=O)C=C3N)C2O[Si](C)(C)C(C)(C)C)c(=O)n(CC(=O)N(CCCl)CCCl)c1=O	-	IIIB	CEM	0.04 µM
C=C1CC[C@H]2C(C)(C)CCC[C@]2(C)[C@H]1CCC1=CC(=O)OC1	-	deltaTAT/Rev MC99	1A2	86.6 µM
CCCCCCCCCCCCCCCC(=O)OCC(COC(=O)CCC(=O)OCC1CC(OP(=O)(O)OCC2CC(OP(=O)(O)OCC3CC(O)C(n4cnc5c(N)ncnc54)O3)C(n3cnc4c(N)ncnc43)O2)C(n2cnc3c(N)ncnc32)O1)OC(=O)CCCCCCCCCCCCCCC	-	IIIB	SupT1 + Sup-T1	24 µM
CC(C)C1=C[C@@H]2[C@H](CC[C@@]2(C)O)[C@@](C)(O)CC1	-	deltaTAT/Rev MC99	1A2	266.8 µM
c1ccc(COC[C@H]2CC[C@@H](COc3cc(OC[C@H]4CC[C@@H](COCc5ccccc5)O4)ncn3)O2)cc1	-	IIIB	CEM	>10 µM
N#CC1C=Cc2ccccc2N1C(=O)c1ccc(Cl)cc1	-	IIIB	MT-2	<3 µM
CCc1ccccc1N1CCN(c2ccc3c(=O)c(C(=O)O)cn(-c4ccc(Cn5cncn5)cc4)c3c2)CC1	-	-	PBL	0.08 µM
Cc1cccc(CS(=O)(=O)c2cccc[n+]2[O-])c1	RT-E103K	IIIB	CEM	≥20 µg/mL
CCOC(=O)c1cc(NC(=O)C2=C(C)OCCS2)ccc1Cl	RT-E138K	TSAO-resistant (RT E138K)	CEM	6.5 µg/mL
Cc1ccc(C)c(CS(=O)(=O)c2ccccn2)c1	RT-Y181C	IIIB	CEM	>20 µg/mL
CCSCC1=C(C(=O)Nc2ccc(Cl)c(C(=O)OC(C)C)c2)SCCO1	RT-E138K	TSAO-resistant (RT E138K)	CEM	4.5 µg/mL
CC(C)OC(=O)c1cc(NC(=S)OC(C)C)ccc1Cl	RT-L100I	IIIB	CEM	2.06 µM
CCCCCCCCCC[N+](C)(C)CCCNCc1c(O)cc2c(c1O)-c1cc(ccc1O)[C@H]1NC(=O)[C@@H]3NC(=O)C4NC(=O)[C@@H](Cc5ccc(c(Cl)c5)Oc5cc3cc(c5O)Oc3ccc(cc3Cl)[C@@H](O)[C@H](NC1=O)C(=O)N[C@@H]2C(=O)O)NC(=O)[C@H](N)c1ccc(O)c(c1)Oc1cc(O)cc4c1	-	HE	MOLT-4/C8 + MOLT-4	3.7 µM
Cc1c(C)c2c(c(C)c1OC(=O)CCC(=O)OC1CC(COP(=O)(O)OC3CC(COP(=O)(O)OC4CC(CO)OC4n4cnc5c(N)ncnc54)OC3n3cnc4c(N)ncnc43)OC1n1cnc3c(N)ncnc31)CCC(C)(CCCC(C)CCCC(C)CCCC(C)C)O2	-	IIIB	SupT1 + Sup-T1	18 µM
Cc1cn([C@H]2C=C[C@@H](COP(=O)(Nc3cc(C(=O)Nc4cc(C(=O)Nc5cc(C(=O)NCCC#N)n(C)c5)n(C)c4)n(C)c3)OC3CCCCC3)O2)c(=O)[nH]c1=O	-	-	CEM	1.39 µM
COc1cc2[nH]c3ccccc3c2cc1C=O	-	-	1A2	12 µM
Nc1nc(OC[C@H]2CC[C@@H](COCc3ccccc3)O2)c2[nH]cnc2n1	-	IIIB	CEM	>50 µM
CC(=O)COc1cc(NC(=S)OC(C)C)ccc1Cl	RT-L100I	-	CEM	14.91 µM
CC1=C(C(=O)Nc2ccc(Cl)c(C(=O)OC(C)C)c2)SCCO1	-	IIIB	CEM	0.042 µM
O=C(O)c1cc(NS(=O)(=O)c2ccc(-c3ccc(S(=O)(=O)Nc4cc(C(=O)O)c(O)c(S(=O)(=O)O)c4)cc3)cc2)cc(S(=O)(=O)O)c1O	-	IIIB	MT-4	<100 µM
COc1cc(CC[C@H](C[C@@H](CCc2cc(OC)c(OC)c(OC)c2)OC(C)=O)OC(C)=O)cc(OC)c1OC	-	deltaTAT/Rev MC99	1A2	60.9 µM
C#CCOc1cc(NC(=S)OC(C)C)ccc1Cl	RT-Y181C	-	CEM	10.57 µM
CSc1ccccc1N1CCN(c2ccc3c(=O)c(C(=O)O)cn(-c4ccc(Cn5cncn5)cc4)c3c2)CC1	-	-	PBL	0.08 µM
COc1cc(O)c2c(c1)OC(c1ccc(Oc3cc(-c4cc(=O)c5c(O)cc(O)cc5o4)ccc3O)cc1)CC2=O	-	MC99 deltaTAT/REV	1A2	0.9 µg/mL
CCCCCOC(=S)Nc1ccc(Cl)c(C(=O)OC(C)C)c1	-	IIIB	CEM	1.6 µM
Nc1ncnc2c1ncn2[C@@H]1O[C@H](COP(=O)(O)O[C@@H]2[C@H](O)[C@@H](COP(=O)(O)O[C@@H]3[C@H](O)[C@@H](CO)O[C@H]3n3cnc4c(N)ncnc43)O[C@H]2n2cnc3c(N)ncnc32)[C@@H](O)[C@H]1O	-	-	SupT1 + Sup-T1	<300 µM
Cc1ccc(C)c(CSc2c(Cl)ccc[n+]2[O-])c1	-	IIIB	C8166	0.04 µg/mL
CC(C)OC(=S)Nc1ccc(Cl)c(C(=O)SC(C)C)c1	RT-E138K	-	CEM	1.205 µM
CC1=C(C(=O)Nc2cccc(C(=O)OC(C)C)c2)SCCO1	RT-L100I	TIBO-resistant (RT L100I)	CEM	9 µg/mL
CCCCC(CC)COC(=O)c1cc(NC(=S)OC(C)C)ccc1Cl	-	IIIB	CEM	0.207 µM
Cc1cccc(N2CCN(c3ccc4c(=O)c(C(=O)O)cn(-c5ccc(Cn6cncn6)cc5)c4c3)CC2)c1	-	-	PBL	0.12 µM
CC1=C(C(=O)Nc2ccc(C)c(C(=O)OC(C)C)c2)SCCO1	RT-V106A	Nevirapine-resistant (RT V106A)	CEM	>10 µg/mL
CC(C)=CCOc1cc(NC(=S)c2ccoc2C)ccc1Cl	-	IIIB	CEM	0.006 µM
CC1=C(C(=S)Nc2ccc(Cl)c(/C=N/OC(C)(C)C)c2)CCO1	RT-L100I	IIIB	CEM	0.065 µg/mL
CCC(C)OC(=O)c1cc(NC(=S)OC(C)C)ccc1Cl	RT-V106A	-	CEM	3.032 µM
CC(C)=CCOc1cc(NC(=S)c2ccoc2C)ccc1Cl	RT-L100I	IIIB	CEM	0.02 µg/mL
CC1=C(C(=O)Nc2ccc(Cl)c(C(=O)OC(C)C)c2)SCCO1	RT-E138K	-	CEM	≥56.2 µM
Cc1cn(C2OC(CO[Si](C)(C)C(C)(C)C)C3(OS(=O)(=O)C=C3N)C2O[Si](C)(C)C(C)(C)C)c(=O)n(CCCNC(=O)c2ccc(C(=O)c3ccccc3)cc2)c1=O	-	IIIB	CEM	0.16 µM
Nc1ncnc2c1ncn2COCCOP(=O)([O-])O[C@@H]1[C@H](O)[C@@H](COP(=O)([O-])O[C@@H]2[C@H](O)[C@@H](COP(=O)([O-])O[C@@H]3[C@H](O)[C@@H](CO)O[C@H]3n3cnc4c(NCc5ccccc5)ncnc43)O[C@H]2n2cnc3c(N)ncnc32)O[C@H]1n1cnc2c(N)ncnc21	-	-	SupT1 + Sup-T1	<100 µM
Cc1cc(C)c(CS(=O)c2cccc[n+]2[O-])c(C)c1	-	MN	CEM	7.6 µg/mL
Cc1cn(C2OC(CO[Si](C)(C)C(C)(C)C)C3(OS(=O)(=O)C=C3N)C2O[Si](C)(C)C(C)(C)C)c(=O)n(CC2CO2)c1=O	-	IIIB	CEM	0.1 µM
C/C=C\COc1cc(NC(=S)OC(C)C)ccc1OC	RT-E138K	-	CEM	4.976 µM
COc1ccc(-c2coc3cc4c(c(OC)c3c2=O)OCO4)cc1OC	-	MC99 deltaTAT/REV	1A2	>125 µg/mL
CCOC(=O)c1cc(NC(=S)OC(C)C)ccc1SC	-	IIIB	CEM	0.191 µM
CCCOC(=O)c1ccc(C)c(NC(=O)C2=C(C)OCCS2)c1	-	IIIB	CEM	1 µg/mL
Cc1cn([C@H]2C=C[C@@H](COP(=O)(Nc3cc(C(=O)Nc4cc(C(=O)Nc5cc(C(=O)NCCC#N)n(C)c5)n(C)c4)n(C)c3)OC(C)C)O2)c(=O)[nH]c1=O	-	-	CEM	1.12 µM
CC1=C(C(=O)Nc2ccc(Cl)c(C(=O)OC(C)C)c2)SCCO1	RT-Y181C	PYR-resistant (RT Y181C)	CEM	15 µg/mL
COC(=O)c1cc(NC(=S)OC(C)C)ccc1Cl	RT-L100I	-	CEM	20.85 µM
Cc1cn([C@H]2C[C@H](N=[N+]=[N-])[C@@H](COP(=O)(Nc3cc(C(=O)Nc4cc(C(=O)Nc5cc(C(=O)NCCC(=N)N)n(C)c5)n(C)c4)n(C)c3)OC3CCCCC3)O2)c(=O)[nH]c1=O	-	-	CEM/TK-	0.97 µM
Cc1cn([C@H]2C[C@H](N=[N+]=[N-])[C@@H](CO)O2)c(=O)[nH]c1=O	-	-	1A2	0.0023 µM
Nc1nccc2c1ncn2[C@@H]1C=C(CO)[C@@H](O)[C@H]1O	-	MN	H9	0.001 µM
O=S(=O)(O)c1cc(Cl)cc(Cc2cc(Cl)cc(S(=O)(=O)O)c2O)c1O	-	-	MOLT-4/HUT-78	>100 µg/mL
CCCSC(=Nc1ccc(Cl)c(C(=O)OC(C)C)c1)OC(C)C	RT-Y181C	-	CEM	>27.78 µM
Nc1ccn([C@@H]2CC[C@H](CO)O2)c(=O)n1	-	RF	C8166	0.066 µM
O=C(Nc1ccc(Cl)c(C(=O)OC2CCCCC2)c1)c1ccccc1F	RT-V106A	IIIB	CEM	2 µg/mL
Nc1nc(N)nc(OC[C@H]2CC[C@@H](COc3nc(N)nc(N)n3)O2)n1	-	IIIB	CEM	>50 µM